Anti-infective test results gathered from many reports (values: NIAID ChemDB through PubChem).

Shared fields: whole-cell or culture tests; agent: Mycobacterium avium; measure: MIC

Lines come from different laboratories, so protocols vary.

SMILES	strain	setting	result
CO[C@H]1/C=C/O[C@@]2(C)Oc3c(C)c(O)c4c(O)c(c(/C=N/N5CCN(C)CC5)c(O)c4c3C2=O)NC(=O)/C(C)=C\C=C\[C@H](C)[C@H](O)[C@@H](C)[C@@H](O)[C@@H](C)[C@H](OC(C)=O)[C@@H]1C	1435	-	>8 µg/mL
CO[C@H]1/C=C/O[C@@]2(C)Oc3c(C)c(O)c4c(O)c(c5c(c4c3C2=O)NC2(CCN(CC(C)C)CC2)N=5)=NC(=O)/C(C)=C\C=C\[C@H](C)[C@H](O)[C@@H](C)[C@@H](O)[C@@H](C)[C@H](OC(C)=O)[C@@H]1C	6-12	-	<0.15 µg/mL
CO[C@H]1/C=C/O[C@@]2(C)Oc3c(C)c(O)c4c(=O)c(c5oc6cc(N7CCN(CC(C)C)CC7)cc(=O)c6nc5c4c3=C2O)NC(=O)/C(C)=C\C=C\[C@H](C)[C@H](O)[C@@H](C)[C@@H](O)[C@@H](C)[C@H](OC(C)=O)[C@@H]1C	3354	-	0.062 µg/mL
O=C(Nc1ccccc1)c1ccccc1OP(=O)(c1ccccc1)c1ccccc1	MY330/88	14 d	125 µM
NC(=S)c1cc(SCc2cccc3ccccc23)ccn1	MY330/88	-	>32 µM
CO[C@H]1/C=C/O[C@@]2(C)Oc3c(C)c(O)c4c(O)c(c5c(c4c3C2=O)NC2(CCN(CC(C)C)CC2)N=5)=NC(=O)/C(C)=C\C=C\[C@H](C)[C@H](O)[C@@H](C)[C@@H](O)[C@@H](C)[C@H](OC(C)=O)[C@@H]1C	Isolate 90-1625	-	1 µg/mL
CC[C@@H](CO)NCCN[C@@H](CC)CO	1435	-	8 µg/mL
Cc1ccc2nc(SCc3ccccn3)[nH]c2c1	MY330/88	-	500 µM
O=C1c2cc(Cl)ccc2OP(=O)(c2ccccc2)N1c1ccc(Cl)c(Cl)c1	MY330/88	7 d	16 µM
c1ccc(CSc2nc3ccccc3o2)nc1	MY330/88	-	125 µM
CN[C@@H]1[C@H](O[C@H]2[C@H](O[C@H]3[C@H](O)[C@@H](O)[C@H](N=C(N)N)[C@@H](O)[C@@H]3N=C(N)N)O[C@@H](C)[C@]2(O)C=O)O[C@@H](CO)[C@H](O)[C@H]1O	1435	-	8 µg/mL
CC[C@H]1OC(=O)[C@H](C)[C@@H](O[C@H]2C[C@@](C)(OC)[C@@H](O)[C@H](C)O2)[C@H](C)[C@@H](O[C@@H]2O[C@H](C)C[C@H](N(C)C)[C@H]2O)[C@](C)(OC)C[C@@H](C)C(=O)[C@H](C)[C@@H](O)[C@]1(C)O	101	-	2 µg/mL
O=C(Nc1ccc(Cl)cc1)c1cc(Cl)ccc1OP(=O)(OCc1ccccc1)OCc1ccccc1	MY330/88	7 d	32 µM
CC[C@H]1OC(=O)[C@H](C)[C@@H](O[C@H]2C[C@@](C)(OC)[C@@H](O)[C@H](C)O2)[C@H](C)[C@@H](O[C@@H]2O[C@H](C)C[C@H](N(C)C)[C@H]2O)[C@](C)(O)C[C@@H](C)CN(C)[C@H](C)[C@@H](O)[C@]1(C)O	453-C clarithromycin-resistant	-	>512 µg/mL
c1cncc(CSc2nc3ccccc3s2)c1	MY330/88	-	125 µM
O=C(O)c1cn(C2CC2)c2c(F)c(N3CCN4CCC3C4)c(F)cc2c1=O	RG0	-	0.5 µg/mL
c1ccc2c(CSc3nc4ccccc4s3)cccc2c1	MY330/88	-	500 µM
O=C(Nc1ccccc1)c1ccccc1OP(=O)(Oc1ccccc1)Oc1ccccc1	MY330/88	14 d	125 µM
c1cncc(CSc2ncn[nH]2)c1	MY330/88	-	>1000 µM
O=C(Nc1ccc(C(F)(F)F)cc1)c1cc(Br)ccc1OP(=O)(OCc1ccccc1)OCc1ccccc1	MY330/88	14 d	62.5 µM
Cc1ccc2nc(SCc3ccncc3)[nH]c2c1	MY330/88	-	250 µM
CC1CN(c2c(F)c(N)c3c(=O)c(C(=O)O)cn(C4CC4)c3c2F)CCN1C	RG4	-	0.25 µg/mL
O=C(Nc1ccc(Br)cc1)c1cc(Cl)ccc1OP(=O)(OCc1ccccc1)OCc1ccccc1	MY330/88	7 d	62.5 µM

An empty or dashed field is not shown.